The supplement of paper PMC9931576
Human monoclonal antibodies against the spike receptor-binding domain (heavy:light variable regions). IC50 against pseudoviruses bearing the spike of naturally observed variants; lower = stronger; >10 µg/ml means not reached at the top dose. No active / inactive call. The stated detection limit is 0.0005 µg/ml; values near or below 0.001 µg/ml lie at the floor of the assay.

B1: TAU-2220 (protein)
chain 1: QVQLVQSGAEVKKPGASVKVSCKASGYTFTNYFIHWVRQAPGQGLEWMGMINPSVGSTTYAQNFQGRVTMTRDTSTSTVYMELSSLRSEDTAIYYCARTHVAQLWEIWYFDIWGRGTLVTVSS
chain 2: QSVLTQPPSASGTPGQRVTISCSGSTSNIGSNAVNWYQQLPGTAPKLLIYSDNHRPSGVPDRFSGSRSGTSASLAISRLQSEDEADYYCAAWDDSLKGVFGGGTKLTVL
B2: BD56-703 (protein)
chain 1: QVQLVESGGGVVQPGRSLRLSCAASGFAFRNYGMHWLRQAPGKGLQWVAVISNGGGNKAYADSVKGRFTISRDNSKNTLSLQMNSLRPEDTAVYFCAKDPEDGIVGTTGWIDSWGQGALVTVSS
chain 2: SYVLTQPPSVSVAPGQTARITCGGQDIGSKSVHWYQQKPGQAPVLVVYDDSDRPSGIPERFSGSNSGNTATLTISRVEAGDEADYYCQVWESRGDHWVFGEGTKLTVL
B3: BD56-715 (protein)
chain 1: QVQLVQSGAEVKKPGASLKVSCKASGYSFTSYGISWVRQAPGQGLEWMGWISPYNRATNYAQKFQGRVTMTTDTSTSTVYMELRSLRSDDTAVYYCVRDDDFVWGSYRLFGDYWGQGTLVTVSS
chain 2: QSVLTQPPSASGTPGQRVTISCSGSSSNIGYYYVYWYQHLPGTAPKLLIYRNNQRPSGVPDRFSGSKSGTSASLAISGLRSEDEADYYCASWDDSLSGPVFGGGTKLTVL
B4: BD56-705 (protein)
chain 1: EVQLVQSGTEVKKPGESLKISCKASGFMFTSYWIGWVRQMPGKGLEWMGVIYPGDSDTRYSPSFQGQVTISADKAINTAYLQWSSLKASDTAMYFCVLPLGRTYQAPFDYWGQGTLVTVSS
chain 2: EIVLTQSPGTLSLSPGERATLSCRASQSLSSSYLAWYQQKPGQAPRLLIYGASDRATGIPDRFSGSGSGTDFTLTISRLEPEDFAVFYCQHYGSSPLTFGGGTKVEIK
B5: BD56-719 (protein)
chain 1: EVQLVQSGAEVKKPGESLKISCKGSGYIFTTYWIGWVRQMPGKGLEWMGIIYPGDSDIRYSPSFQGQVTISADKSFNTAYLQWSSLQASDTAMYYCARLVSFDWLADFWGQGTLVTVSS
chain 2: DIVMTQSPLSLSVSPGQPASISCKSSQSLLHSDGTTSLYWYLQKPGQPPQLLIYEVSNRFSGVPARFSGSGSGTDFTLKISRVEAEDVGVYYCMQNILLFTWTFGQGTKVEIK
B6: BD56-901 (protein)
chain 1: QVQLVESGGGVVQPGRSLRLSCVASGFSFSTYGMHWVRQAPGKGLEWVAVIWYDGNNKYYADSVKGRFTISRDNSKNTLYLQMNSLRAEDTAVYYCAKELPYSRVAGNDDYYYYYGMDVWGQGTTVTVSS
chain 2: SHELTQPPSVSVSPGQTASITCSGDKLGDKYASWYQQKPGQSPVLVIFQDSKRPSGIPERFSGSNSGNTATLTISGTQAMDEADYYCQAWGSGTARNWVFGGGTKLTVL
B7: TAU-2310 (protein)
chain 1: EVQLLESGGGLVQPGGSLRLSCAASGFTFSNYVMSWVRQAPGKGLEWVSGIGGSGDSTYYADSVKGRFTISRDNSKNTLYLQINSLRAEDTAVYYCAKGAAPYYYYYYGMDVWGQGTTVTVSS
chain 2: QSALTQPASVSGSPGQSITISCTGTSSDVGGYDYVSWYQQHPGKAPKLMIYEVSDRPSGVSNRFSGSKSGSTASLTISGLQAEDEADYYCSSYTSSSALYVFGTGTKVTVL
B8: BD56-730 (protein)
chain 1: QVQLVESGGGVVQPGRSLRLSCAASAFTFSTYAMYWVRQAPGKGLEWVALISYDGINKDYADSVKGRFTISRDNSKNTLYLQMNGLRTEDTAVYYCARDLARAQLVGDDYYYYYGMDVWGQGTTVTVSS
chain 2: SYELTQPPSVSVSPGQTARITCSGDALPKQHAYWYQQKPGQAPVLVIYKDNERPSGIPERFSGSSSGTTVTLTITGVQAEDEADYYCQSAGISGTYVVFGGGTKLTVL
B9: BD56-722 (protein)
chain 1: QVQLVESGGGVVQPGRSLRLSCAASGFTFSNCPIHWVRQAPGKGLEWVAVISYDGINQYYAESVKGRFTVSRDNSKNTVFLQMNSLRPEDTAVYYCARDRQIGWFGDGDGFEIWGQGTVVTVSS
chain 2: DIVLTQSPATLSLSPGERATLSCRASQSVSSHLAWYQQKPGQAPRLLIYGASYRATGIPARFSGSGSGTDFTLTISSLEPEDFAVYYCHQRSNWPPYTFGQGTKLEIK
B10: BD56-688 (protein)
chain 1: EVQLVQSGAEVKKPGESLKISCKGSGYSFTSYWIGWVRQMPGKGLEWMGIIYPGDSDTRYSPSFQGQVTISADKSISTAYLQWSSLKASDTAMYYCARLLCGGDCPLEYWGQGTLVTVSS
chain 2: QSALTQPASVSGSPGQSITISCTGTSSDVGDYNYVSWYQQHPGKAPKLMIYDVSDRPSGVSNRFSGSKSGNTASLTISGLQAEDEADYYCSSYTSSSTLFGGGTKLTVL
B11: BD56-713 (protein)
chain 1: EVQLVESGGGLVQPGGSLRLSCAASGFTFSDYSMNWVRQAPGKGLEWISYITSSSTNIYHADSVKGRFTISRDNAKNSLYLQMNSLRAEDTAVYFCARDYDTTGPGDLFDYWGQGTLVTVSS
chain 2: SYVLTQPPSVSVAPGKTARITCGGDNIGSKSVHWYQQKPGQAPVLVIYYDSDRPSGIPDRFSGSNSGNTATLTISRVEAGDEADYYCQVWDTGRVFGGGTKLTVL
B12: BD56-698 (protein)
chain 1: QVQLVQSGSELKKPGASVKVSCKASGYTFTKYALNWVRQAPGQGLEWMGWINTNSGDPTYAQGFRGRFVFALDTSVSTAYLQISSLKAEDTAVYYCARVFREAAAVYQYYYAMEVWGQGTTVTVSS
chain 2: SYVLTQPPSVSVAPGQTARITCGGNDIGSKSVHWYEQKPGQAPVLVVHDDSVRPSGIPERFSGSNSGNTATLTISRVEAGDEADYYCQVWDSSGVFGGGTTLTVL

Molecular target: SARS-CoV-2 Omicron BA.1 spike pseudovirus
Test: pseudovirus neutralization IC50; higher = weaker neutralization
Description: (§1)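 Single-round VSV luciferase pseudovirus mixed with antibody dilutions for 1 h and put on Huh-7 cells for about a day; IC50 from the dose curve.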

Binder | pseudovirus neutralization IC50 [µg/mL]
B1 | > 10
B2 | 3.66
B3 | > 10
B4 | 2.65
B5 | 0.00438
B6 | 0.536
B7 | > 10
B8 | 0.79
B9 | 1.83
B10 | > 10
B11 | > 10
B12 | 1.86

Molecular target: SARS-CoV-2 Omicron BA.2 spike pseudovirus
Test: as above
Description: as §1

Binder | pseudovirus neutralization IC50 [µg/mL]
B1 | > 10
B2 | 3.49
B3 | > 10
B4 | 5.37
B5 | 0.00805
B6 | 2.75
B7 | > 10
B8 | 0.99
B9 | 1.52
B10 | > 10
B11 | > 10
B12 | 2.31

Molecular target: SARS-CoV-2 Omicron BA.2.75 spike pseudovirus
Test: as above
Description: as §1

Binder | pseudovirus neutralization IC50 [µg/mL]
B1 | > 10
B2 | 2.99
B3 | > 10
B4 | 4.79
B5 | 0.00792
B6 | 1.45
B7 | > 10
B8 | 1.89
B9 | 2.59
B10 | > 10
B11 | > 10
B12 | 2.54

Molecular target: SARS-CoV-2 Omicron BA.5 spike pseudovirus
Test: as above
Description: as §1

Binder | pseudovirus neutralization IC50 [µg/mL]
B1 | > 10
B2 | 3.55
B3 | > 10
B4 | 3.45
B5 | 0.00711
B6 | 2.94
B7 | > 10
B8 | 0.914
B9 | 2.01
B10 | > 10
B11 | > 10
B12 | 3.45

Molecular target: SARS-CoV-2 Omicron BQ.1.1 spike pseudovirus
Test: as above
Description: as §1

Binder | pseudovirus neutralization IC50 [µg/mL]
B1 | > 10
B2 | 7.82
B3 | > 10
B4 | 3.39
B5 | > 10
B6 | 1.67
B7 | > 10
B8 | 5.33
B9 | 3.44
B10 | > 10
B11 | > 10
B12 | > 10

Molecular target: SARS-CoV-2 Omicron XBB spike pseudovirus
Test: as above
Description: as §1

Binder | pseudovirus neutralization IC50 [µg/mL]
B1 | > 10
B2 | 6.62
B3 | > 10
B4 | 2.93
B5 | 4.01
B6 | 1.5
B7 | > 10
B8 | 3.94
B9 | 4.96
B10 | > 10
B11 | > 10
B12 | > 10

Molecular target: SARS-CoV-2 early D614G spike pseudovirus
Test: as above
Description: as §1

Binder | pseudovirus neutralization IC50 [µg/mL]
B1 | > 10
B2 | > 10
B3 | > 10
B4 | > 10
B5 | 0.00434
B6 | > 10
B7 | 5.57
B8 | 5.91
B9 | 2.3
B10 | > 10
B11 | > 10
B12 | > 10
